Anti-infective test results gathered from many reports (values: NIAID ChemDB through PubChem).

Common to all: growth or infection tests; species: Influenza B virus; measure: EC50

Two numbers with a dash give a range or band.

CCCN(CCc1ccc(O)cc1)C(=O)[C@@H]1OC(C(=O)O)=C[C@H](N)[C@H]1NC(C)=O ; read by: plaque count ; result: 2 µg/mL
CC(=O)N[C@H]1[C@H]([C@H](O)[C@H](O)CO)OC(C(=O)O)=C[C@@H]1N=C(N)N ; strain or isolate: Panama/45/90 ; cells: MDCK ; result: 1.3 µM
CC(=O)N[C@@H]1[C@@H](N)C=C(C(=O)O)O[C@H]1C(=O)N(CCc1ccccc1)CC(=O)O ; read by: plaque count ; result: 11.5 µg/mL
CCC(CC)[C@H](NC(C)=O)[C@@H]1C[C@@H](C(=O)O)C[C@H]1N=C(N)N ; strain or isolate: Beijing/184/93 ; cells: MDCK ; result: 0.09 µM
CCCN(CCCc1ccccc1)C(=O)[C@@H]1OC(C(=O)O)=C[C@H](N)[C@H]1NC(C)=O ; read by: plaque count ; result: >1 µg/mL
Nc1nc(Cl)cc(NCCC2(CO)CCC2)n1 ; strain or isolate: B/GIFU/2/73 ; cells: MDCK ; read by: plaque count ; result: >120 µM
Nc1nc2c(ncn2[C@@H]2O[C@H](CO)[C@@H](O)[C@H]2F)c(=O)[nH]1 ; strain or isolate: B/HONG KONG/73 ; cells: CEF ; read by: plaque count ; result: 1 µM
CCCN(CCc1ccc(OC)cc1)C(=O)[C@@H]1OC(C(=O)O)=C[C@H](N)[C@H]1NC(C)=O ; read by: plaque count ; result: 3.6 µg/mL
Nc1ccnc(N)n1 ; strain or isolate: B/GIFU/2/73 ; cells: MDCK ; read by: plaque count ; result: >910 µM
CCCN(CCc1ccc(Cc2ccccc2)cc1)C(=O)[C@@H]1OC(C(=O)O)=C[C@H](N)[C@H]1NC(C)=O ; read by: plaque count ; result: 3.1 µg/mL
Nc1nc(Cl)cc(NCC2(CO)COC2)n1 ; strain or isolate: B/GIFU/2/73 ; cells: MDCK ; read by: plaque count ; result: >410 µM
CCCC(CCC)C(NC(C)=O)C1CC(C(=O)O)CC1N=C(N)N ; strain or isolate: Beijing/184/93 ; cells: MDCK ; result: 0.02 µM
CN(CC1(CO)CCC1)c1cc(Cl)nc(N)n1 ; strain or isolate: B/GIFU/2/73 ; cells: MDCK ; read by: plaque count ; result: >120 µM
CCCCCCCCCN(CCC)C(=O)[C@@H]1OC(C(=O)O)=C[C@H](N=C(N)N)[C@H]1NC(C)=O ; read by: plaque count ; result: 2.7 µg/mL
Nc1ncc(N)c(NCC2(CO)CC(Cc3ccccc3)C2)n1 ; strain or isolate: B/GIFU/2/73 ; cells: MDCK ; read by: plaque count ; result: 3.2–25 µM
C/C=C\[C@@H]1C[C@H](C(=O)O)N[C@H]1[C@@H](NC(C)=O)[C@](C)(CCC)OC ; strain or isolate: Isolate G72 ; cells: MDCK ; read by: plaque count ; result: <0.01 µg/mL
CCCOc1ccccc1CNC(=O)c1ccc2cnccc2n1 ; read by: plaque count ; result: 3.2 µg/mL
CCCC(CCC)C(NC(C)=O)C1C(N=C(N)N)CC(C(=O)O)C1O ; strain or isolate: HONG KONG/5/72 ; cells: MDCK ; result: 2 µM

A second listing of 2 rows from above:

smiles | strain or isolate | cells | read by | result
CCCC(CCC)C(NC(C)=O)C1CC(C(=O)O)CC1N=C(N)N | Beijing/184/93 | MDCK | - | 0.02 µM
CCCOc1ccccc1CNC(=O)c1ccc2cnccc2n1 | - | - | plaque count | 3.2 µg/mL

An empty or dashed field is not shown. Conditions beyond the fields shown may differ between rows. ECn: concentration that inhibits the pathogen or its effect by n%.